Human monoclonal antibodies against the spike receptor-binding domain (heavy:light variable regions). IC50 against pseudoviruses bearing the spike of naturally observed variants; lower = stronger; >10 µg/ml means not reached at the top dose. No active / inactive call. The stated detection limit is 0.0005 µg/ml; values near or below 0.001 µg/ml lie at the floor of the assay.

Common to all, as to experiment: pseudovirus neutralization IC50; higher = weaker neutralization
For assay [1], the target named is SARS-CoV-2 Omicron BA.1 spike pseudovirus. On the procedure: (§1)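 Single-round VSV luciferase pseudovirus mixed with antibody dilutions for 1 h and put on Huh-7 cells for about a day; IC50 from the dose curve.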
Assay [2] addresses SARS-CoV-2 Omicron BA.2 spike pseudovirus. On the procedure:
as §1

The target of assay [3] is SARS-CoV-2 Omicron BA.2.75 spike pseudovirus. On the procedure: as §1
The target in assay [4] is SARS-CoV-2 Omicron BA.5 spike pseudovirus. On the procedure: as §1
Assay [5] addresses SARS-CoV-2 Omicron BQ.1.1 spike pseudovirus. On the procedure: as §1
Assay [6] deals with SARS-CoV-2 Omicron XBB spike pseudovirus. On the procedure:
as §1

Assay [7] concerns the target SARS-CoV-2 early D614G spike pseudovirus. On the procedure:
as §1

B1: BD56-1314 (protein)
chain 1: EVQLVESGGGLVQPGGSLRLSCAASGFTFSNYDMHWVRQGRGKRLEWVSGIGTAGDTYHLDSVKGRFTISRENTRNSLYLQMNSLRDGDTAVYYCARGKDWLSWVFDSWGQGTLVTVSS
chain 2: DIQMTQSPSSLSASVGDRVTITCRASQSINTYLNWYQQKPGKAPKLLIYAASTLQSGAPSRFSASGSGTDFTLTISSLQPEDFATYYCQQSYTMPPVTFGQGTRLEIK
For the molecule B1, the “pseudovirus neutralization IC50” value was 3.17 µg/mL in assay [1]; 4.24 µg/mL in assay [2]; over 10 µg/mL in assay [3]; over 10 µg/mL in assay [4]; over 10 µg/mL in assay [5]; over 10 µg/mL in assay [6]. Further, the “pseudovirus neutralization IC50” value in assay [7] stood at 4.61 µg/mL.

B2: COV2-2113 (protein)
chain 1: EVQLVESGGGLIQPGGSLRLSCAASEVTVSSNYMSWVRQAPGKGLEWVSLIYSGGTTYYADSVKGRFTISRDNSKNTLYLQMNSLRAEDTAVYYCARDFLRWHDLWGQGTLVTVSS
chain 2: DIQMTQSPSSLSASVGDRVTITCQASQDINNYLNWYQQKPGKAPKLLIYDASNLETGVPLRFSGSGSGTDFIFTISSLQPEDIATYYCQQYDNLPPVFGGGTKVEIK
With B2, the “pseudovirus neutralization IC50” value in assay [1], in assay [2], in assay [3], in assay [4], in assay [5] and in assay [6] was over 10 µg/mL each time. In addition, the “pseudovirus neutralization IC50” value in assay [7] worked out at 0.0164 µg/mL.

B3: BD56-1300 (protein)
chain 1: EVQLVESGGGFIQPGGSLRLSCAASGFTFSTYDMLWVRQATGKGLEWVSTIGTAGDTYYPDSVKGRITISRENAKNSLYLQMNNLRAGDTAVYYCARMGETMVRGISRLYYYYYMDVWGKGTTVTVSS
chain 2: DIQMTQSPSSLSASVGDRVIITCRASQSISSYLNWYQQKPGKAPKLLIYAASSLQSGVPSRFSGSGSGTDFTLTISSLQPEDFATYYCQQSYISPMYTFGQGTKLEIK
Take B3: the “pseudovirus neutralization IC50” value in assay [1], in assay [2], in assay [3], in assay [4], in assay [5] and in assay [6] was over 10 µg/mL throughout. In addition, the “pseudovirus neutralization IC50” value in assay [7] is over 10 µg/mL.

B4: COV2-2308 (protein)
chain 1: EVQLLESGGGLIQPGGSLRLSCAASGFTFSNYAMSWVRQAPGKGLEWVSGIISSSGGATYNADSVRGRFTTSRDNSKNILYLQMNSLRGEDTAVYYCVKGLFDWFPLWGQGTMVTVSS
chain 2: DIVMTQSPATLSVSPGERAILSCRASQSVRSNLAWYQQKPGQAPRLLISGASTRATAIPARFSGSGSGTEFTLTITSLQSEDCAVYYCHQYNNWPQTFGQGTKVEIK
B4: the “pseudovirus neutralization IC50” value was 2.6 µg/mL in assay [1]; 3.98 µg/mL in assay [2]; 0.0117 µg/mL in assay [3]; over 10 µg/mL in assay [4]; over 10 µg/mL in assay [5]; over 10 µg/mL in assay [6]. Further, in assay [7], the “pseudovirus neutralization IC50” value was determined as 0.0091 µg/mL.

B5: BD56-1303 (protein)
chain 1: QVQLQESGPGLVKPSETLSLTCTVAGGSISNYYWSWIRQPAGKGLEWIGRVYISGSTNYIPSLKGRVTMSLDTSKNQFSLRLRSVTAADTAVYYCATSGSGTFSDYWSFDLWGRGTLVTVSS
chain 2: NFMLTQPHSVSESPGKTVTISCTRSSGSIASNYVQWYQRRPGSAPTTVIYEDNQRPSGVPDRFSGSIDTSSNSASLTISGLKTEDEADYYCQSYDTSNVVFGGGTKLTVL
As to B5, the “pseudovirus neutralization IC50” value in assay [1] is 0.181 µg/mL; in assay [2] it was 0.038 µg/mL; in assay [3], 0.0666 µg/mL; in assay [4], 0.0598 µg/mL; in assay [5], over 10 µg/mL; in assay [6] it was 3.37 µg/mL. Further, the “pseudovirus neutralization IC50” value in assay [7] is 0.0669 µg/mL.

B6: BD56-1309 (protein)
chain 1: QVQLVESGGGVVQPGRSLRLSCAASGFTFSSYVMHWVRQAPGKGLEWVAVISYDGSEKYYADSVKGRFTVSRDNSKNTLYLQMHSLRAEDTAVYYCARDFSFRGSGWPEYFQHWGQGTLVTVSS
chain 2: SYVLTQPPSVSVAPGKTASIACGGKNIGTKGVHWYQQKPGQAPLLVIYYDSDRPSGIPERISGSKSGNTATLSISRVEAGDEADYYCQVWDSSSDHVVFGGGTKLTVL
Take B6: the “pseudovirus neutralization IC50” value was 0.00917 µg/mL in assay [1]; 0.00981 µg/mL in assay [2]; over 10 µg/mL in assay [3]; over 10 µg/mL in assay [4]; over 10 µg/mL in assay [5]; over 10 µg/mL in assay [6]. Further, the “pseudovirus neutralization IC50” value in assay [7] was 0.00591 µg/mL.

B7: BD56-1285 (protein)
chain 1: QVQLVQSGTEVKKPGASVKVSCKASGYSFTSYGFSWVRQAPGQGLEWMGWISAYNGNTDYAQRLQGRVTMTTDTSTTTAYMELRSLRFDDTAVYYCARDFGEISGSENFDLWGQGTLVTVSS
chain 2: EIVLTQSPATLSLSPGERATLSCRASQSLSIYLAWFQQKPGQAPRLLIYHASNRATGIPARFSGSGSGTDFTLTISSLEPEDFAVYYCQQRSKWPSFGQGTRLEIK
For B7, the “pseudovirus neutralization IC50” value in assay [1] is 0.265 µg/mL; in assay [2], 0.169 µg/mL; in assay [3], 0.244 µg/mL; in assay [4], over 10 µg/mL; in assay [5], over 10 µg/mL; in assay [6] it was over 10 µg/mL. Besides, the “pseudovirus neutralization IC50” value in assay [7] was 0.577 µg/mL.

B8: BD56-1287 (protein)
chain 1: QVQLQESGPGLVKPSQTLSLTCTVSGGSIRGGGYYWSWIRQPPGKGLQWIGYIFYSGTTYYNPSLQSRASISVDPSKNQFSLNLTSVTAADTAVYFCASSAYDGSPGGFEYWGQGTQVTVSS
chain 2: QSALTQPPSASGSPGQSVTISCIGLSSDVGGYKYVSWYQQHPGKAPKLIIYEVTKRPSGVPDRFSGSKSANTASLTVSGLRAEDEADYYCCSYAGNNNWVFGGGTKLTVL
Consider B8, for which the “pseudovirus neutralization IC50” value in assay [1] was 0.166 µg/mL; in assay [2], 0.504 µg/mL; in assay [3] it was over 10 µg/mL; in assay [4], 0.371 µg/mL; in assay [5], over 10 µg/mL; in assay [6], over 10 µg/mL. Also, the “pseudovirus neutralization IC50” value in assay [7] amounted to 0.00161 µg/mL.

B9: BD56-1305 (protein)
chain 1: QAQLVESGGGVLQPGRSLRLSCVASRLTFSAYGMHWVRQAPGKGLEWVAVISSDGSNKYYADSVKGRFSISRDNSKNTLYLQMNSLRAEDAAVYYCARLLGYYDGSGYFGNEYWGQGTLVTVSS
chain 2: QSALTQPASVSGSPGQSITISCTGTSSDVGGYNFVSWYQQHPGKAPKLMIYDVSDRPSGVSNRFSGSKSGNTASLAISGLQAEDEADYYCSSYTSSSTVVFGGGTKLTVL
With B9, the “pseudovirus neutralization IC50” value in assay [1], in assay [2], in assay [3], in assay [4], in assay [5] and in assay [6] was over 10 µg/mL in each case. Besides, the “pseudovirus neutralization IC50” value in assay [7] was 1.02 µg/mL.

B10: BD56-1315 (protein)
chain 1: QVQLVQSGAEVKKPGSSVKVSCKASGDTFSNFAISWVRKAPGQGLELMGGIIPTFGTSNYAQKFQGRLTITADESTTTAYMELSSLRFEDTALYYCARDLMFKGESWLDPWGQGTLVTVSS
chain 2: SYVLTQPPSESVAPGKTARITCGGENIGSKSVHWYQQKPGQAPMLVVYDDGDRPSGIPERFSGSNSGNTATLTIGRVEAGDEAEYYCQVWDSFSDLHVVFGGGTKLTVL
In the case of B10, the “pseudovirus neutralization IC50” value in assay [1], in assay [2], in assay [3], in assay [4], in assay [5] and in assay [6] was over 10 µg/mL throughout. In assay [7], the “pseudovirus neutralization IC50” value is over 10 µg/mL.

B11: BD56-1296 (protein)
chain 1: QVQLVQSGAEVKKPGASVKVSCKASGYTFTNYYIHWVRQAPGQGLAWMGMINPSGGTARYAQKFQGRVTMTRDTSTSAVYMELSSLTSEDTAIYYCARELVAPAAGYMDVWGKGTTVTVSS
chain 2: SYVLTQPPSVSVAPGKTASITCGGTDIGSKSVHWYQQKPGQAPVLVVYYDSDRPSGIPERFSGSNSGNTATLTISRVEAGDEADYYCQVWDSISDHFYVFGTGTKVTVL
Consider B11, for which the “pseudovirus neutralization IC50” value in assay [1], in assay [2], in assay [3], in assay [4], in assay [5] and in assay [6] was over 10 µg/mL throughout. Besides, the “pseudovirus neutralization IC50” value in assay [7] was over 10 µg/mL.

B12: BD56-1302 (protein)
chain 1: EVQLVESGGGLVQPGGSLRLSCAASGLIVSRNYMSWVRQPPGRGLEWVSLLFAGGSTFYADSVKGRFTISRDNSKNTLYLQMSSLRNEDTAVYYCARDLGPVGATDVWGQGTTVTVSS
chain 2: EIVMTQSPATLSVSPGGKATLSCRASQSIHSSLAWYQQKPGQAPRLLIYDASTRATGIPARFGGSGSGTEFTLTISSLQSEDFAVYHCQQYHTWPPMYTFGQGTKLEIK
Regarding B12, the “pseudovirus neutralization IC50” value in assay [1] worked out at 0.00217 µg/mL; in assay [2], 0.00273 µg/mL; in assay [3] it was 0.00402 µg/mL; in assay [4], 0.00205 µg/mL; in assay [5], 0.0149 µg/mL; in assay [6], 0.0181 µg/mL. Moreover, the “pseudovirus neutralization IC50” value in assay [7] came to 0.00572 µg/mL.

B13: BD56-1311 (protein)
chain 1: QVQLVQSGAEVKKPGASVKVSCRASGYTFTAYYLHWVRQAPGQGLEWMGWINPDSGDTNYAQTFQGRVTMTRDTSITTAYMELSRLTSDDTAVYYCARDLSALGPSYADDNAFDIWGQGTMVTVSP
chain 2: SYELTQPPSASVSPGQTAKITCSGQTWPTQYAYWYQLKPGQAPVLVIYKDSERPSGIPERFSGSSSGTTVTLTIRGVQAEDEADYYCQSADSRGVVFGGGTKLTVL
Turning to B13, the “pseudovirus neutralization IC50” value in assay [1], in assay [2], in assay [3], in assay [4], in assay [5] and in assay [6] was over 10 µg/mL throughout. In addition, the “pseudovirus neutralization IC50” value in assay [7] is 0.707 µg/mL.

The record behind these values is the supplement of paper PMC9931576.
